Experimental data taken from PMC5581740.

Key:
[1] = system: Cc1cn([C@H]2C[C@H](O)[C@@H](COP(=O)(O)OP(=O)(O)O[C@H]3O[C@H](C)[C@@H](O)[C@H](N)[C@H]3O)O2)c(=O)[nH]c1=O; assay: purified protein; conditions: 5 mM N10-formyl-THF, 50 mM HEPPS pH 8.0, 0.20 uM enzyme
[2] = system: Cc1cn([C@H]2C[C@H](O)[C@@H](COP(=O)(O)OP(=O)(O)O[C@H]3O[C@H](C)[C@H](O)[C@H](N)[C@H]3O)O2)c(=O)[nH]c1=O; assay: purified protein; conditions: 5 mM N10-formyl-THF, 50 mM HEPPS pH 8.0, 0.20 uM enzyme

Substance: FdtF (Salmonella enterica; E395A)
- Km [1]: 180 ± 20 µM
- kcat [1]: 2.8 s⁻¹
- kcat/Km [1]: 16000 M⁻¹ s⁻¹
- Km [2]: 110 ± 10 µM
- kcat [2]: 15.8 s⁻¹
- kcat/Km [2]: 140000 M⁻¹ s⁻¹
